Measurements published in PubChem BioAssay AID540256 (National Center for Advancing Translational Sciences (NCATS), 2011).
The list shows a part of the results, in another mix than the full data. Records with an inconclusive call do not appear. Active and inactive are the calls of the source. The call rests on the fitted dose curve; tested in HEK293 cells.

assay: qHTS for Inhibitors of binding or entry into cells for Lassa Virus; conditions: Lassa virus pseudotype entry inhibition, cell reporter; at 46.1 µM (top of the series) unless noted; further: nearly all actives have a fitted effect of over 50% in size
On the % scale 0 is the no-effect control and ±100 the full control effect.

| Structure (SMILES) | activity change, negative = inhibition |
| --- | --- |
| O=C(OC1CN2CCC1CC2)c1ccc([N+](=O)[O-])cc1 (centres undefined) | inactive: -1.05% |
| O=P1(N(CCCl)CCCl)SCCCS1 | inactive: 4.33% |
| O=C1C(O)=C([N+](=O)[O-])C(=O)C(O)=C1[N+](=O)[O-] | inactive: -10.2% |
| N/C(=N\O)c1c(N)no[n+]1[O-] | inactive: -9.11% [at 37.9 µM] |
